Tested on: A/WSN/1933 (H1N1)
Assay: in vitro selection of escape viruses by passaging in MDCK cells
Type: cell-based, influenza A virus

Cc1onc(-c2ccccc2)c1C(=O)N1CCN(c2ccc([N+](=O)[O-])cc2Cl)CC1 [Nucleozin, nucleozin, reference compound]
Highest does at CPE observed (Passage number 1): 0.3 µM
Highest does at CPE observed (Passage number 2): 1.0 µM
Highest does at CPE observed (Passage number 3): 3.0 µM
Highest does at CPE observed (Passage number 4): 10 µM
Highest does at CPE observed (Passage number 4, listed as nuclozin): up to 10 μM

O=C(O)c1cc(-c2ccc(-c3ccccc3)cc2)nc2ccccc12 [RK424]
Highest does at CPE observed (Passage number 1): 0.2 µM
Highest does at CPE observed (Passage number 2): 0.6 µM
Highest does at CPE observed (Passage number 3): 0.3 µM
Highest does at CPE observed (Passage number 4): no CPE occurred
viral titer of 3rd passage virus normalized to HAU (virus passaged with the compound, WT 2.19×10^5 PFU/mL per HAU): 1.41×10^3 PFU/mL per HAU

Reference: article PMC4519322 (PLoS Pathogens, 2015)
